PubChem BioAssay AID504761 | Drosophila RNAi Screening Center, 2011

Purpose: 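Insect host genes that dengue virus relies on to spread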 (primary screen)
Cells: D.Mel-2 cells from Drosophila
Knock-down reagent: long dsRNA against Drosophila genes
Treatment: infection with dengue virus type 2; dose and infection time not stated
Detection: 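Per well on two replicate plates, imaging gave the percent of cells positive for viral envelope protein, ranked by infection, and a nuclear count of cells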
Scale: infection score: higher = more virus-infected cells; cell count: higher = more cells in the well
Active means: 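Very low infection ranking in both replicate wells (chance probability at most 0.065), then a retest showing infection dropped 1.5-fold or more at p below 0.05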
Calls: active = confirmed: knock-down lowers infection; inactive = not picked or not confirmed
The screen tested about 22,000 reagents; this is an unselected part of those with a known target gene and a result. Over the whole deposit, 116 (0.52%) were called active. 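Calls depend on retest data that are not deposited; infection was ranked per plate without normalising between plates; the unit of the infection score is not given.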 Raw values are not corrected between plates. Reagents against one gene are numbered here. Further read-outs or replicates are left out here. Not given: the amount of reagent, the time to read-out.

{"Target gene":"aurA","reagent":1,"infection score, replicate 1":5.04,"cell count, replicate 1":6250,"Call":"inactive"}
{"Target gene":"aurA","reagent":2,"infection score, replicate 1":7.48,"cell count, replicate 1":6167,"Call":"inactive"}
{"Target gene":"Snx1","reagent":1,"infection score, replicate 1":6.99,"cell count, replicate 1":6491,"Call":"inactive"}
{"Target gene":"CG18223","reagent":1,"infection score, replicate 1":17.2,"cell count, replicate 1":6396,"Call":"inactive"}
{"Target gene":"CG12121","reagent":1,"infection score, replicate 1":6.2,"cell count, replicate 1":6456,"Call":"inactive"}
{"Target gene":"CG42382","reagent":1,"infection score, replicate 1":2.93,"cell count, replicate 1":6576,"Call":"inactive"}
{"Target gene":"Rpn5","reagent":1,"infection score, replicate 1":5.39,"cell count, replicate 1":2986,"Call":"inactive"}
{"Target gene":"Rpn5","reagent":2,"infection score, replicate 1":8.67,"cell count, replicate 1":2756,"Call":"inactive"}
{"Target gene":"CG12219","reagent":1,"infection score, replicate 1":16.4,"cell count, replicate 1":5748,"Call":"inactive"}
{"Target gene":"CG12219","reagent":2,"infection score, replicate 1":14.2,"cell count, replicate 1":4637,"Call":"inactive"}
{"Target gene":"gas","reagent":1,"infection score, replicate 1":17.2,"cell count, replicate 1":6226,"Call":"inactive"}
{"Target gene":"Ugt37E1","reagent":1,"cell count, replicate 1":504,"Call":"inactive"}
{"Target gene":"Ugt37E1","reagent":2,"infection score, replicate 1":2.38,"cell count, replicate 1":5971,"Call":"inactive"}
{"Target gene":"I-t","reagent":1,"infection score, replicate 1":2.34,"cell count, replicate 1":6739,"Call":"inactive"}
{"Target gene":"Hexo1","reagent":1,"infection score, replicate 1":2.22,"cell count, replicate 1":6172,"Call":"inactive"}
{"Target gene":"lolal","reagent":1,"infection score, replicate 1":9.42,"cell count, replicate 1":6780,"Call":"inactive"}
{"Target gene":"Hn","reagent":1,"infection score, replicate 1":8.42,"cell count, replicate 1":6425,"Call":"inactive"}
{"Target gene":"Scgalpha","reagent":1,"infection score, replicate 1":15.2,"cell count, replicate 1":5933,"Call":"inactive"}
{"Target gene":"Scgalpha","reagent":2,"infection score, replicate 1":14.1,"cell count, replicate 1":5403,"Call":"inactive"}
{"Target gene":"CG3168","reagent":1,"infection score, replicate 1":3.82,"cell count, replicate 1":864,"Call":"inactive"}
{"Target gene":"CG3168","reagent":2,"infection score, replicate 1":1.75,"cell count, replicate 1":6012,"Call":"inactive"}
